A mixed list of measured activities; the numbers were collected in NIAID ChemDB.

Shared fields: growth or infection tests; species: HIV-1; cell line: CEM; read by: syncytia; read-out: fold resistance

Rows are shuffled and stem from different studies. Blank or dashed fields: not listed here. Fold resistance: result on the changed form divided by that on wild type.

smiles | strain or isolate | changes | value
CC(C)OC(=O)c1cc(NC(=O)OCC2CC2)ccc1Cl | - | RT-V106A | 20
Cc1occc1C(=O)Nc1ccc(Cl)c(SCC=C(Cl)Cl)c1 | Nevirapine-resistant isolate (RT V106A) | RT-V106A | 8.6
CC1=C(C(=O)Nc2ccc(Cl)c(C(=O)OC3CCCCC3C)c2)SCCO1 | TSAO-resistant (RT E138K) | RT-E138K | 7.5
CC(C)COC(=O)c1cc(NC(=S)OC(C)C)ccc1Cl | - | RT-E138K | 55.6
Cc1occc1C(=S)Nc1ccc(Cl)c(/C=N/OC(C)(C)C)c1 | IIIB | RT-Y181C | 2
CCOCn1c(Sc2cc(C)cc(C)c2)c(CC)c(=O)[nH]c1=O | IIIB TIBO R82913-resistant (RT K103N) | RT-K103N | 17.5
CCOC(=O)c1cc(NC(=S)OC(C)C)ccc1C | - | RT-Y181C | 2750
COc1ccccc1C(=S)Nc1ccc(Cl)c(C(=O)OC(C)C)c1 | - | RT-E138K | 20.3
CC1=C(C(=O)Nc2ccc(Cl)c(OCC=C(Cl)Cl)c2)SCCO1 | TIBO R82913-resistant (RT K103N) | RT-K103N | 1.67
Cc1ccsc1C(=S)Nc1ccc(Cl)c(C(=O)OC(C)C)c1 | - | RT-Y181C | 26.7
CC(C)O/N=C/c1cc(NC(=S)OC(C)C)ccc1Cl | - | RT-V106A | 45
COc1ccc(NC(=O)c2ccoc2C)cc1OCC=C(Cl)Cl | TIBO R82150-resistant (RT L100I) | RT-L100I | 20
CC1=C(C(=O)Nc2ccc(Cl)c(C(=O)OC(C)C)c2)SCCO1 | IIIB | RT-E138K | >1450
CCOCn1c(Sc2ccccc2)c(C(C)C)c(=O)[nH]c1=O | IIIB | RT-Y181C | 52
CC[C@@H](C)OC(=S)Nc1ccc(Cl)c(C(=O)OC(C)C)c1 | - | RT-L100I | 14.9
COc1ccc(NC(=S)c2ccsc2C)cc1OCC=C(Cl)Cl | TIBO R82913-resistant (RT K103N) | RT-K103N | 320
Cc1occc1C(=S)Nc1ccc(Cl)c(OCC(C)(C)C)c1 | - | RT-V106A | 13.3
CC1=C(C(=O)Nc2ccc(Cl)c(C(=O)OC(C)C)c2)SCCO1 | - | RT-E138K | ≥1330
CCc1c(Sc2cc(C)cc(C)c2)n(COCc2ccccc2)c(=S)[nH]c1=O | IIIB | RT-E138K | 1.67
Cc1ccoc1C(=S)Nc1ccc(Cl)c(C(=O)OC(C)C)c1 | - | RT-L100I | 51.6
COc1ccc(NC(=O)C2=C(C)OCCS2)cc1OCC=C(Cl)Cl | TIBO R82150-resistant (RT L100I) | RT-L100I | 2.5
CC(C)OC(=S)Nc1ccc(Cl)c(C(=O)OCC2CC2)c1 | - | RT-L100I | 17.5
CC(C)=CCOc1cc(NC(=S)c2ccoc2C)ccc1Cl | IIIB | RT-V179D | 2
C/C(Cl)=C/COc1cc(NC(=S)c2ccoc2C)ccc1Cl | TIBO R82150-resistant (RT L100I) | RT-L100I | 13.3
CC1=C(C(=O)Nc2ccc(Cl)c(C(=O)OC3CCCCC3)c2)SCCO1 | Nevirapine-resistant (RT V106A) | RT-V106A | 125
CC1=C(C(=S)Nc2ccc(Cl)c(C=NOC(C)(C)C)c2)CCCO1 | - | RT-Y188L | 771
CCc1c(Sc2ccccc2)n(COCc2ccccc2)c(=O)[nH]c1=O | IIIB (TIBO 82150) (RT-L100I) | RT-L100I | 10
CCC(C)OC(=S)Nc1ccc(Cl)c(C(=O)OC(C)(C)C)c1 | - | RT-V106A | 11.7
Cc1occc1C(=S)Nc1ccc(Cl)c(OCC=C(Cl)Cl)c1 | HEPT-resistant (RT Y188H) | RT-Y188H | 235
CCOC(=O)c1cc(NC(=S)OC(C)C)ccc1Cl | - | RT-V106A | 167
Cc1cc(C)cc(Sc2c(C(C)C)c(=O)[nH]c(=S)n2COCCO)c1 | IIIB (TIBO 82150) (RT-L100I) | RT-L100I | 1.5
CC(C)OC(=O)c1cc(NC(=S)N(C)C(C)C)ccc1Cl | - | RT-L100I | >1
Cc1occc1C(=O)Nc1ccc(Cl)c(/C=N/N2CCCC2)c1 | R82913-resistant (RT K103N) | RT-K103N | <6.15
CC(C)OC(=O)Nc1ccc(Cl)c(C(=O)OC(C)C)c1 | - | RT-Y181C | >1.82
CC1=C(C(=O)Nc2ccc(F)c(C(=O)OC(C)C)c2)SCCO1 | TIBO-resistant (RT L100I) | RT-L100I | >28.6
C/C=C\COc1cc(NC(=S)OC(C)C)ccc1Cl | - | RT-V106A | 150
CCSCC1=C(C(=O)Nc2ccc(Cl)c(C(=O)OC(C)C)c2)SCCO1 | TSAO-resistant (RT E138K) | RT-E138K | 1.5
C=C(Cl)COc1cc(NC(=S)c2ccoc2C)ccc1Cl | TIBO R82150-resistant (RT L100I) | RT-L100I | 14.9
Cc1occc1C(=S)Nc1ccc(Cl)c(OCC(=O)OC(C)(C)C)c1 | - | RT-L100I | 2.11
C=CCOc1cc(NC(=S)OC(C)C)ccc1C#N | - | RT-L100I | ≥20
C=C(Cl)COc1cc(NC(=S)c2ccsc2C)ccc1C#N | Nevirapine-resistant isolate (RT V106A) | RT-V106A | 6.67
CC(C)OC(=O)c1cc(NC(=S)OC(C)C)ccc1Cl | IIIB | RT-Y188H | 72.4
C/C=C\COc1cc(NC(=S)OC(C)C)ccc1OC | - | RT-E138K | 36.8

The first 6 rows once more:

smiles	strain or isolate	changes	value
CC(C)OC(=O)c1cc(NC(=O)OCC2CC2)ccc1Cl	-	RT-V106A	20
Cc1occc1C(=O)Nc1ccc(Cl)c(SCC=C(Cl)Cl)c1	Nevirapine-resistant isolate (RT V106A)	RT-V106A	8.6
CC1=C(C(=O)Nc2ccc(Cl)c(C(=O)OC3CCCCC3C)c2)SCCO1	TSAO-resistant (RT E138K)	RT-E138K	7.5
CC(C)COC(=O)c1cc(NC(=S)OC(C)C)ccc1Cl	-	RT-E138K	55.6
Cc1occc1C(=S)Nc1ccc(Cl)c(/C=N/OC(C)(C)C)c1	IIIB	RT-Y181C	2
CCOCn1c(Sc2cc(C)cc(C)c2)c(CC)c(=O)[nH]c1=O	IIIB TIBO R82913-resistant (RT K103N)	RT-K103N	17.5